Measured values as given in patent US20050170334A1.

Molecular target: M2 peptide (extracellular 23-amino-acid M2 peptide) (influenza A virus)
Test: ELISA, peptide coated, antibody 10 µg/ml

B1: N547 (antibody, V domains shown)
VH: EVQLVESGGGLVKPGGSLRLSCAASGFTFSNALMSWVRQAPGKGLEWVGRIKSKTNGGTTDYAAPVKGRFTISRDDSKNTLYLQMNSLKTEDTAVYYCTTHLRYFDWLSDYWGQGTLVTVSS
VL: QSVLTQPPSMSAAPGQKVTISCSGSSSNIGNNYISWYQQLPGTAPKVLIYDNNKRPSGIPDRFSGSKSGTSATLGITGLQTGDEADYYCGSWDSSLSAGVFGTGTKVTVLG
**Q.** How did the ELISA (OD450) turn out when B1 was run?
**A.** The ELISA (OD450) was 0.51 OD450.
